Replication capacity of HIV-1 mutants, RT

Protein: RT of HIV-1 NL4-3, numbered from its first residue.
Effects on overlapping genes or RNA elements are not listed.

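Random point mutant libraries of HIV-1 NL4-3, one for each of seven fragments, were passaged in CEM T lymphocytes. Sequencing gave the RC index: frequency after two rounds over frequency in the input plasmid.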

A higher RC index is a better tolerated change; approximate classes are lethal up to 0.1, attenuated to 0.2, tolerated above. Substitutions are written as wild-type residue, site number, new residue. Input reads are the counts in the plasmid library.

{"change": "L425I", "base": "T3822A", "input reads": "217", "RC": 0.0673}
{"change": "W426R", "base": "T3825C", "input reads": "137", "RC": 0.0400}
{"change": "Y427H", "base": "T3828C", "input reads": "187", "RC": 0.0586}
{"change": "Y427F", "base": "A3829T", "input reads": "58", "RC": 0.0629}
{"change": "Q428L", "base": "A3832T", "input reads": "300", "RC": 0.0426}
{"change": "L429F", "base": "A3836T", "input reads": "325", "RC": 0.0674}
{"change": "E430G", "base": "A3838G", "input reads": "128", "RC": 0.0998}
{"change": "K431R", "base": "A3841G", "input reads": "294", "RC": 0.0372}
{"change": "I434L", "base": "A3849T", "input reads": "202", "RC": 0.0542}
{"change": "I434K", "base": "T3850A", "input reads": "271", "RC": 0.0539}
{"change": "I435L", "base": "A3852T", "input reads": "239", "RC": 0.0382}
{"change": "G436R", "base": "G3855A", "input reads": "109", "RC": 0.837}
{"change": "A437T", "base": "G3858A", "input reads": "302", "RC": 0.0786}
{"change": "A437E", "base": "C3859A", "input reads": "49", "RC": 0.0745}
{"change": "T439S", "base": "A3864T", "input reads": "88", "RC": 0.166}
{"change": "Y441C", "base": "A3871G", "input reads": "171", "RC": 0.0213}
{"change": "D443N", "base": "G3876A", "input reads": "170", "RC": 0.590}
{"change": "D443Y", "base": "G3876T", "input reads": "140", "RC": 0.0652}
{"change": "D443G", "base": "A3877G", "input reads": "205", "RC": 0.0267}
{"change": "A445S", "base": "G3882T", "input reads": "80", "RC": 0.0456}
{"change": "A445G", "base": "C3883G", "input reads": "52", "RC": 0.0702}
{"change": "A446T", "base": "G3885A", "input reads": "262", "RC": 0.230}
{"change": "A446S", "base": "G3885T", "input reads": "83", "RC": 0.0660}
{"change": "N447H", "base": "A3888C", "input reads": "40", "RC": 0.0913}
{"change": "N447D", "base": "A3888G", "input reads": "223", "RC": 0.0164}
{"change": "E449G", "base": "A3895G", "input reads": "231", "RC": 0.0237}
{"change": "K451N", "base": "A3902T", "input reads": "122", "RC": 0.0299}
{"change": "L452F", "base": "A3905T", "input reads": "189", "RC": 0.0290}
{"change": "A455T", "base": "G3912A", "input reads": "292", "RC": 0.0875}
{"change": "G456E", "base": "G3916A", "input reads": "132", "RC": 0.401}
{"change": "Y457F", "base": "A3919T", "input reads": "188", "RC": 0.0388}
{"change": "V458I", "base": "G3921A", "input reads": "230", "RC": 0.246}
{"change": "V458L", "base": "G3921C", "input reads": "49", "RC": 0.0372}
{"change": "D460E", "base": "C3929G", "input reads": "83", "RC": 0.0660}
{"change": "R463G", "base": "A3936G", "input reads": "235", "RC": 0.0466}
{"change": "Q464R", "base": "A3940G", "input reads": "298", "RC": 0.102}
{"change": "K465T", "base": "A3943C", "input reads": "127", "RC": 0.0150}
{"change": "K465R", "base": "A3943G", "input reads": "262", "RC": 0.0725}
{"change": "V466D", "base": "T3946A", "input reads": "220", "RC": 0.0346}
{"change": "V467I", "base": "G3948A", "input reads": "167", "RC": 0.364}
{"change": "P468S", "base": "C3951T", "input reads": "198", "RC": 0.0672}
{"change": "P468H", "base": "C3952A", "input reads": "163", "RC": 0.163}
{"change": "P468L", "base": "C3952T", "input reads": "174", "RC": 0.0765}
{"change": "L469Q", "base": "T3955A", "input reads": "225", "RC": 0.0253}
{"change": "T470A", "base": "A3957G", "input reads": "275", "RC": 0.0553}
{"change": "D471N", "base": "G3960A", "input reads": "111", "RC": 0.976}
{"change": "D471V", "base": "A3961T", "input reads": "240", "RC": 0.0317}
{"change": "D471E", "base": "C3962A", "input reads": "60", "RC": 0.127}
{"change": "T473S", "base": "A3966T", "input reads": "281", "RC": 0.0609}
{"change": "T473I", "base": "C3967T", "input reads": "269", "RC": 0.106}
{"change": "N474Y", "base": "A3969T", "input reads": "387", "RC": 0.0295}
{"change": "N474S", "base": "A3970G", "input reads": "141", "RC": 0.0270}
{"change": "Q475L", "base": "A3973T", "input reads": "274", "RC": 0.0277}
{"change": "Q475H", "base": "G3974T", "input reads": "184", "RC": 0.0620}
{"change": "K476R", "base": "A3976G", "input reads": "208", "RC": 0.0731}
{"change": "T477A", "base": "A3978G", "input reads": "164", "RC": 0.0695}
{"change": "T477N", "base": "C3979A", "input reads": "124", "RC": 0.107}
{"change": "T477I", "base": "C3979T", "input reads": "148", "RC": 0.282}
{"change": "E478V", "base": "A3982T", "input reads": "337", "RC": 0.0451}
{"change": "E478D", "base": "G3983T", "input reads": "88", "RC": 0.0864}
{"change": "Q480R", "base": "A3988G", "input reads": "332", "RC": 0.132}
{"change": "Q480L", "base": "A3988T", "input reads": "233", "RC": 0.0571}
{"change": "A481T", "base": "G3990A", "input reads": "223", "RC": 0.0767}
{"change": "A481P", "base": "G3990C", "input reads": "45", "RC": 0.0845}
{"change": "I482V", "base": "A3993G", "input reads": "205", "RC": 0.0371}
{"change": "I482F", "base": "A3993T", "input reads": "226", "RC": 0.0505}

Clones carried about five changes per kilobase, which can drag down the index of neutral changes. Base changes are numbered along pNL4-3. The authors read an index above 1 as above wild type (1.9% of all changes in the genome).

Source: Al-Mawsawi et al. 2014 (doi:10.1186/s12977-014-0124-6), supplementary data.